The target of test [1] is Human immunodeficiency virus type 1 reverse transcriptase (Human immunodeficiency virus 1, UniProt Q72547, K103N). The test is described as follows: Inhibition of HIV-1 p66/p51 reverse transcriptase K103N mutant incubated for 40 mins by picogreen dye-based spectrofluorometric analysis.
In test [2] the target is Human immunodeficiency virus type 1 reverse transcriptase (Human immunodeficiency virus 1, UniProt Q72547, Y181C). The test can be described thus: Inhibition of HIV-1 p66/p51 reverse transcriptase Y181C mutant incubated for 40 mins by picogreen dye-based spectrofluorometric analysis.

pEC50: −log10 of the molar value.

A word on the pEC50: it is the negative decadic logarithm of the EC50, by convention in mol/L. High values mean a small EC50, low ones a large EC50.

`Cc1cc(C#N)cc(C)c1Oc1nc(Nc2ccc(C#N)cc2)nc(N)c1Br` [ETRAVIRINE]: the negative logarithm of the EC50 (pEC50) in test [1] was 8.47; in test [2], 7.72.

For the origin of these results see ChEMBL document CHEMBL4808181, “Hydrophobic Pocket Occupation Design of Difluoro-Biphenyl-Diarylpyrimidines as Non-Nucleoside HIV-1 Reverse Transcriptase Inhibitors: from N-Alkylation to Methyl Hopping on the Pyrimidine Ring” (J Med Chem, 2021).
